The assay concerns the target T1, HIV-1 integrase (purified recombinant HIV-1 subtype C IN) (Human immunodeficiency virus type 1 group M subtype C, UniProt Q75002).
T1 construct: Recombinant HIV-1 subtype CIN was assembled on to the pre-processed donor DNA
Nature of the assay: HIV-1 Integrase strand transfer inhibition assay. It is filed as biochemical. Conditions: read-out: Assembly IC50 (anti-HIV-1 integrase activity); mean ± SD; '-' in Table 2 = no inhibition detected. The protocol:
The HIV-1 Integrase strand transfer inhibition assay was adapted from previously described methods. […] Following incubation at room temperature for 40 min and a stringent wash step, 5 µg/mL purified recombinant HIV-1 subtype CIN in integrase buffer 1 ([…] to ethanol, 50 µg/mL BSA, pH 7.5) was added to individual wells. […] Recombinant HIV-1 subtype CIN was assembled on to the pre-processed donor DNA through incubation for 45 min at room temperature. Strand transfer reaction was initiated through the addition of 10 µM (final concentration) double-stranded FITC-labelled target DNA (5′-[…]/36-FAM/-3′) annealed to (5′-[…]-/36-FAM/-3′) in integrase buffer 2 (same as buffer 1, except 25 µM MnCl2 was replaced with 2.5 µM MgCl2). After an incubation period of 60 min at 37 °C, the plates were washed using PBS containing 0.05% Tween 20 and 0.01% BSA, followed by the addition of peroxidase-conjugated sheep anti-FITC antibody (Thermo Scientific, Waltham, MA, USA) diluted 1:1000 in the same PBS buffer. Finally, the plates were washed and peroxidase substrate (Sure Blue Reserve™, KPL, Gaithersburg, MD, USA) was added to allow for detection at 620 nm using a Synergy MX (BioTek®) plate reader. Absorbance values were converted to % enzyme activity relative to the readings obtained from the control wells (enzyme without inhibitor).

Sequences of proteins named here, by UniProt entry; tags and fusion partners are left off. Residues count along the entry.
UniProt Q75002, 1152-1439: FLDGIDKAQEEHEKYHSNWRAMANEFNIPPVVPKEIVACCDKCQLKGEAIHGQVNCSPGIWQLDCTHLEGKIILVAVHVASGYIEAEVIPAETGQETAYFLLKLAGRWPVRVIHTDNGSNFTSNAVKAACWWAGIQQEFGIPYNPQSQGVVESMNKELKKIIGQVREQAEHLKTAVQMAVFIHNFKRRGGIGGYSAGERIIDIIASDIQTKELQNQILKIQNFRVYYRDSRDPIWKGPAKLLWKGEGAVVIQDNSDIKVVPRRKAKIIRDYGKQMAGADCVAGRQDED

This passage reports IC50 results from article PMC9414862, “In Vitro and In Silico Potential Inhibitory Effects of New Biflavonoids from Ochna rhizomatosa on HIV-1 Integrase and Plasmodium falciparum” (Pharmaceutics, 2022).

By IC50 is commonly meant the midpoint of a concentration-inhibition curve. Turning to Chicoric acid [reference compound], the half-inhibitory concentration (IC50) is 6 ± 2 nM.
